Laboratory results: PubChem BioAssay AID504761 (Drosophila RNAi Screening Center, 2011)

Test: 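Genome-wide fly cell screen for genes dengue virus requires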 (primary screen)
Cells: D.Mel-2 cells from Drosophila
Knock-down reagent: long dsRNA against Drosophila genes
Treatment: infection with dengue virus type 2; dose and infection time not stated
Measurement: 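Cells stained for dengue envelope protein and imaged; percent of infected cells per well on duplicate plates, ranked by infection, with stained nuclei counted for cell number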
Scale: infection score: higher = more virus-infected cells
Hit rule: 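Very low infection ranking in both replicate wells (chance probability at most 0.065), then a retest showing infection dropped 1.5-fold or more at p below 0.05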
Meaning of the calls: active = confirmed: knock-down lowers infection; inactive = not picked or not confirmed
The screen tested about 22,000 reagents; this is an unselected part of those with a known target gene and a result. Over the whole deposit, 116 (0.52%) got an active call. 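Calls depend on retest data that are not deposited; infection was ranked per plate without normalising between plates; the unit of the infection score is not given.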 Unmarked entries are inactive. Reagents against one gene are numbered here. Names joined by + are all predicted targets of the reagent. Further read-outs or replicates are left out here. No sequences are given here. The record does not give: the amount of reagent, the time to read-out.

target	reagent no.	infection score, replicate 1
PGAP1 (Post-GPI attachment to proteins 1)	1	1.42
PGAP1 (Post-GPI attachment to proteins 1)	2	2.89
CG1024	1	3.88
CG11906	1	2.73
CG4744	1	18.4
CG4744	2	6.69
Ir7f (Ionotropic receptor 7f)	1	7.04
CG34423 + Mthfs	1	10.5
Hira	1	21.5
mthl1 (methuselah-like 1)	1	1.04
Rcd6 (Reduction in Cnn dots 6)	1	15.1
Rcd6 (Reduction in Cnn dots 6)	2	38.4
Ir76b (Ionotropic receptor 76b)	1	1.58
Act88F (Actin 88F)	1	4.93
Act88F (Actin 88F)	2	2.39
PCNA2 (Proliferating cell nuclear antigen 2)	1	7.44
Slu7	1	1.52
Slu7	2	3.92
AANATL2 (Arylalkylamine N-acetyltransferase-like 2)	1	0.33
AANATL2 (Arylalkylamine N-acetyltransferase-like 2)	2	3.48
Marc (Mitochondrial amidoxime reducing component)	1	11.9
PNPase (Polynucleotide phosphorylase)	1	2.04
PQBP1 (Poly-glutamine tract binding protein 1)	1	5.97
CG33491 (retired record) + CG33496 (retired record) + CG33487 (retired record) + 1 more	1	4.08
CG15366 (retired record)	1	21
CG30047	1	1.55
Hsp70Bb + Hsp70Bbb	1	2.27
Ykt6 (YKT6 v-SNARE)	1	3.18
Ykt6 (YKT6 v-SNARE)	2	16.4
Nopp140	1	7.39
Nopp140	2	4.66
CG14395	1	4.11
MAGE	1	5.95
CG14820	1	4.52
Cyp6w1 (Cytochrome P450 6w1)	1	11.7
nol (no optic lobe)	1	2.13
nol (no optic lobe)	2	4.54
dpy (dumpy)	1	2.76
dpy (dumpy)	2	7.94
dpy (dumpy)	3	11.7
CG32603	1	1.84
CG32603	2	14.5
CG32603	3	11.5
IscU (Iron-sulfur cluster assembly enzyme)	1	2.21
CG34393	1	7.93
CG34393	2	22
CG34393	3	2.61
CG34393	4	4.7
CG32440	1	0.89
vnc + CG42455	1	6.92
Got2 (Glutamate oxaloacetate transaminase 2)	1	1.16
RpS5b (Ribosomal protein S5b)	1	10.9
Brd8 (Bromodomain containing 8)	1	1.31
Brd8 (Bromodomain containing 8)	2	15.4
eIF3a (eukaryotic translation initiation factor 3 subunit a)	1	9.28
eIF3a (eukaryotic translation initiation factor 3 subunit a)	2	4.79
CG4577	1	2.01
RhoGAP18B (Rho GTPase activating protein at 18B)	1	5.7
RhoGAP18B (Rho GTPase activating protein at 18B)	2	4.11
RhoGAP18B (Rho GTPase activating protein at 18B)	3	3.1
RhoGAP18B (Rho GTPase activating protein at 18B)	4	8.1
RhoGAP18B (Rho GTPase activating protein at 18B)	5	2.58
PolA2 (DNA polymerase alpha subunit 2)	1	13.8
Gcn5 (Gcn5 acetyltransferase)	1	12.2
Gcn5 (Gcn5 acetyltransferase)	2	2.19
TwdlK (TweedleK)	1	3.63
CG7448 (retired record)	1	1.94
CG7448 (retired record)	2	3.09
CG1703	1	8.79
CG32706 + CG6999	1	13.2
CG32706 + CG6999	2	9.5
Sgt (small glutamine-rich tetratricopeptide containing protein)	1	11.1
Sgt (small glutamine-rich tetratricopeptide containing protein)	2	5.04
CG34433	1	10.3

Targets above whose target name begins with A or a:
target	reagent no.	infection score, replicate 1
Act88F (Actin 88F)	1	4.93
Act88F (Actin 88F)	2	2.39
AANATL2 (Arylalkylamine N-acetyltransferase-like 2)	1	0.33
AANATL2 (Arylalkylamine N-acetyltransferase-like 2)	2	3.48
